Results as given in article PMC11210859, “Antiviral activity of intracellular nanobodies targeting the influenza virus RNA-polymerase core” (2024).

Biological target: PA-PB1 dimer: PA-Luc1 co-expressed with untagged PB1 (influenza A virus, strain not stated), P15659
Assay: split reporter (BiFC, NanoBiT)
Settings: remark: other sources report otherwise

B1: PB2 subunit of FluPol fused to Luc2, P03427 1-759 (natural protein)
chain: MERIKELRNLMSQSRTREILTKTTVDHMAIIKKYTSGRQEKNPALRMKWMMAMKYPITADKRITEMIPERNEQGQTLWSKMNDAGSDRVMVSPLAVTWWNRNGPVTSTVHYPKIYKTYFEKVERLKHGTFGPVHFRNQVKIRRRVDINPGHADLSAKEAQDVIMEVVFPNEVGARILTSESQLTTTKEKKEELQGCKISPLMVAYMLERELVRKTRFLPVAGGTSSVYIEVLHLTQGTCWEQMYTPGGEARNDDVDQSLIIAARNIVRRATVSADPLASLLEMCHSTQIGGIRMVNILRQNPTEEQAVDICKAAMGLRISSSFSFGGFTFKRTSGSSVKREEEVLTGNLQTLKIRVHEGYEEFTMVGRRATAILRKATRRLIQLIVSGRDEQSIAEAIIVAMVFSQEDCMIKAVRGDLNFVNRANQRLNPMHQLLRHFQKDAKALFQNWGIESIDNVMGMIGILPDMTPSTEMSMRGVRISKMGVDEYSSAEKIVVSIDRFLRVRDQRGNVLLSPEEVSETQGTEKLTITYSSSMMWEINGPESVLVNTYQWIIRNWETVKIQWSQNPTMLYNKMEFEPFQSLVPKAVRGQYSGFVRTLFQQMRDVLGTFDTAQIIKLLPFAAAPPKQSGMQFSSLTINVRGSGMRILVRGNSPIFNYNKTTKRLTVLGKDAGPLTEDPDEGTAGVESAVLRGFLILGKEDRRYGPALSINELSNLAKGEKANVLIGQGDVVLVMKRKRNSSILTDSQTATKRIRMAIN
How did the NLR turn out when B1 was run?
Its NLR is 100.
